A mixed list of measured activities; the numbers were collected in NIAID ChemDB.

All rows: growth or infection tests; species: HIV-1

Conditions beyond the fields shown may differ between rows. ECn: concentration that inhibits the pathogen or its effect by n%. a–b is a range or a potency band. Blank or dashed fields: not listed here.

SMILES,strain,cell line,read by,setting,read-out,changes,value
CCc1cc(NCc2nc3c(Cl)ccc(Cl)c3o2)c(=O)[nH]c1C,Clinical isolate (RT K103R D67N K70R K219Q),PBMC,p24,,EC50,RT-D67N K70R K103R K219Q,<0.4 µM
C[C@@H](Cn1cnc2c(N)ncnc21)OCP(=O)(OCOC(=O)OC1CCCCC1)OCOC(=O)OC1CCCCC1.O=C(O)/C=C/C(=O)O,IIIB,MT-4,p24,,EC50,,17.5 µM
Cc1ccc(-n2nnnc2SCC(=O)Nc2ccccc2[N+](=O)[O-])cc1,,MT-4,p24,,EC95,,<10 µM
Cc1ccnc2c1NC(=O)c1cccnc1N2C1CC1,,,RT activity,pseudotyped,EC50,,0.01 µM
O=C1N(Cc2cccc(-c3ccn[nH]3)c2)[C@H](Cc2ccc(OCCN3CCOCC3)cc2)[C@H](O)[C@@H](O)[C@@H](Cc2ccc(OCCN3CCOCC3)cc2)N1Cc1cccc(-c2ccn[nH]2)c1,RF,MT-2,hybridisation,,EC50,,<1.033 µM
COc1ccc(S(=O)(=O)NC(N)=NCCC[C@H](NC(=O)N[C@@H](Cc2ccccc2)C(=O)OC(C)(C)C)C(=O)N[C@H](C(=O)N[C@H](C=O)Cc2ccccc2)C(C)C)cc1,,MT-4,,,EC50,,<1.7 µM
N#Cc1ccc(Nc2nc(Oc3ccc(-c4ccc(C#N)cc4)cc3[N+](=O)[O-])c3sccc3n2)cc1,IIIB,MT-4,MTT,,EC50,,0.0078 µM
Nc1ncnc2c1ncn2CCOCP(=O)(OCOC(=O)OC1CCCC1)OCOC(=O)OC1CCCC1,,MT-4,p24,,EC50,,3.51 µM
Nc1ncnc2c1ncn2[C@@H]1O[C@H](CO)[C@H]2CC[C@H]21,NL4-3,MT-4,MTT,,EC50,,17.8 µg/mL
O=C(O)c1cc(O)c(O)c(O)c1,IIIB,MOLT-3,syncytia,,EC50,,<5 µg/mL
CC(C)CN(C[C@@H](O)[C@H](Cc1ccccc1)NC(=O)[C@H](CC(N)=O)NC(=O)c1ccc2ccccc2n1)C(=O)NC(C)(C)C,NL4-3,MT-4,p24,,EC50,PR-L10R L63P,<0.2 µM
O=C1N(Cc2ccccc2)[C@H](Cc2ccc(OCc3ccncc3)cc2)[C@H](O)[C@@H](O)[C@@H](Cc2ccc(OCc3ccncc3)cc2)N1Cc1ccccc1,RF,MT-2,hybridisation,,EC50,,<0.1 µM
C=CCOC(=O)OCOP(=O)(O)COCCn1cnc2c(N)ncnc21,,MT-4,p24,,EC50,,23.7 µM
CC(C)=CCOc1cc(NC(=S)c2ccoc2C)ccc1Cl,NL4-3,TZM-bl,luminescence,,EC50,(36G)V38A N42D,>2000 µM
Nc1ncnc2c1ncn2CCOCP(=O)(OCOC(=O)OC1CCCCC1)OCOC(=O)OC1CCCCC1,,MT-4,p24,,EC50,,23.1 µM
C[C@H](Cn1cnc2c(N)ncnc21)OCP(=O)(O)O,NL4-3,TZM-bl,luciferase,,EC50,X4,7.1 µM
Cc1cn([C@H]2C[C@H](N=[N+]=[N-])[C@@H](CO)O2)c(=O)[nH]c1=O,IIIB,MT-4,,,EC50,,<0.013 µM
Cc1cc(C)cc(C(=O)c2cccnc2Oc2ccccc2)c1,RES056,MT-4,MTT,,EC50,,>20.7 µM
Cc1cc(C)c(-n2nnnc2SCC(=O)Nc2cccc(F)c2C)c(C)c1,,MT-4,p24,,EC50,,<10 µM
COc1ccc(C[C@H]2COC(=O)[C@@H]2Cc2ccc(O[C@@H]3O[C@H](CO)[C@@H](O)[C@H](O)[C@H]3O)c(OC)c2)cc1OC,IIIB,H9,p24,,EC50,,<5 µM
Cc1cc(C)c(-n2nnnc2SCC(=O)Nc2ccc(F)cc2C)c(C)c1,,MT-4,p24,,EC95,,<10 µM
Cc1ccnc2c1NC(=O)c1cccnc1N2C1CC1,,MT-4,cytopathic effect / MTT,,EC50,RT-K103N Y181C,>10 µM
O[C@H]1OC[C@H](Cc2ccc3c(c2)OCO3)[C@H]1Cc1ccc2c(c1)OCO2,IIIB,H9,p24,,EC50,,<12.7 µM
CC(C)[C@H](NC(=O)N(C)Cc1ccccn1)C(=O)N[C@@H](Cc1ccccc1)[C@@H](O)[C@H](O)[C@H](Cc1ccccc1)NC(=O)[C@@H](NC(=O)N(C)Cc1ccccn1)C(C)C,NL4-3,MT-4,p24,,EC50,,0.9 µM
COC(=O)N[C@H](C(=O)N[C@@H](Cc1ccccc1)[C@@H](O)CN(Cc1ccc(-c2ccccn2)cc1)NC(=O)[C@@H](NC(=O)OC)C(C)(C)C)C(C)(C)C,LAI,MT-2,,,EC50,,0.005 µM
COc1cc(C[C@@]2(O)C(=O)OC[C@@H]2Cc2ccc(OC)c(OC)c2)ccc1O,IIIB,H9,p24,,EC50,,~0.52 µM
Cc1ccnc2c1NC(=O)c1cccnc1N2C1CC1,IIIB,MT-4,MTT,,EC50,,0.3094 µM
O=c1[nH]cnc2c1ncn2[C@H]1CC[C@@H](CO)O1,IIIB,MT-4,cytopathic effect / trypan blue,,EC50,,10 µM
O=c1[nH]cnc2c1ncn2[C@H]1CC[C@@H](CO)O1,LAI,MT-2,cytopathic effect / XTT,,EC50,,11.8 µM
Fc1cccc(F)c1Cn1c(-c2c(F)cccc2F)nc2c(Br)cccc21,,MT-4,cytopathic effect / MTT,,EC50,RT-Y181C,8.4 µM
O=C1N(Cc2ccccc2)[C@H](Cc2ccc(O)cc2)[C@H](O)[C@@H](O)[C@@H](Cc2ccc(O)cc2)N1Cc1ccccc1,RF,MT-2,hybridisation,,EC50,,<0.184 µM
Cc1cccc(C)c1OCC(=O)N[C@@H](Cc1ccccc1)[C@@H](O)C[C@H](Cc1ccccc1)NC(=O)[C@H](C(C)C)N1CCCNC1=O,Clinical isolate,PBMC,p24 / luminescence,"clinical isolate, multidrug-resistant",EC50,L10I K14R L33I M36I M46I F53I K55R I62V L63P A71V G73S V82A L90M I93L,>1 µM
Cc1cn([C@H]2C[C@H](N=[N+]=[N-])[C@@H](CO)O2)c(=O)[nH]c1=O,,CEM,antigen,,EC50,,~0.0001 µg/mL
C[C@H](Cn1cnc2c(N)ncnc21)OCP(=O)(OCOC(=O)OC1CCCC1)OCOC(=O)OC1CCCC1,,MT-4,p24,,EC50,,>30 µM
Nc1nc2c(ncn2[C@H]2CO[C@@H](CO)O2)c(=O)[nH]1,LAI,MT-2,cytopathic effect / XTT,,EC50,,2.2 µM
Nc1nc(=O)n([C@@H]2C[Se][C@H](CO)O2)cc1F,BRU(RT-M184V),PBMC,RT activity,,EC50,RT-M184V,>50 µM
Cc1cn([C@H]2C[C@H](N=[N+]=[N-])[C@@H](COC(=O)C3CCC4C5CCC6=CC(=O)CCC6(C)C5C(O)CC34C)O2)c(=O)[nH]c1=O,,CEM,cytopathic effect / XTT,,EC50,,0.567 µM
CC(C)[C@H](NC(=O)[C@H](CCCN=C(N)N)NC(=O)N[C@@H](Cc1ccccc1)C(=O)O)C(=O)N[C@H](CO)Cc1ccccc1,,MT-4,,,EC50,,>100 µM
Cc1cc(C)cc(C(=O)c2cccnc2Nc2ccc(/C(N)=N\O)cc2)c1,IIIB,MT-4,MTT,,EC50,,>30.27 µM
Cc1cc(-c2ccc(C#N)cc2)cc(C)c1Oc1nc(Nc2ccc(C#N)cc2)nc2ccsc12,IIIB,MT-4,MTT,,EC50,K103N,0.0338 µM
CC(C)[C@H](NC(=O)N(C)Cc1ccccn1)C(=O)N[C@@H](Cc1ccccc1)[C@H](O)[C@H](O)[C@H](Cc1ccccc1)NC(=O)[C@@H](NC(=O)N(C)Cc1ccccn1)C(C)C,NL4-3,MT-4,p24,,EC50,PR-M46I,0.2 µM
CNc1cccc2c1nc(-c1c(F)cccc1F)n2Cc1c(F)cccc1F,,MT-4,cytopathic effect / MTT,,EC50,RT-Y181C,0.26 µM
Cc1cc(C)c(-n2nnnc2SCC(=O)Nc2ccc(C)cc2Cl)c(C)c1,,MT-4,p24,,EC50,,<10 µM
Cc1cn([C@H]2C[C@H](N=[N+]=[N-])[C@@H](CO)O2)c(=O)[nH]c1=O,IIIB,MT-4,cytopathic effect / MTT,,EC50,,0.0053 µM
Nc1cccc2c1nc(-c1c(F)cccc1F)n2Cc1c(F)cccc1F,,MT-4,cytopathic effect / MTT,,EC50,RT-L100I,0.3 µM
C/C=C/C1C(=O)OCC1CCC(C)=O,LAI,C8166,p24 / ELISA / antigen,,EC50,,10.52 µM
COc1cc(C[C@@](O)(C(N)=O)[C@H](CO)Cc2ccc(OC)c(OC)c2)ccc1O,IIIB,H9,RT activity,,EC50,,<1.8 µM
O=C1CCN(CCOc2ccc(Cl)cc2C(=O)c2cc(Cl)cc(Cl)c2)C(=O)N1,,,RT activity,pseudotyped,EC50,Y181C,0.75 µM
CN(C)c1ccc(-n2nnnc2SCC(=O)Nc2ccccc2Cl)cc1,,MT-4,p24,,EC95,,<10 µM
CC(=O)c1ccc(Nc2ncccc2C(=O)c2cc(C)cc(C)c2)cc1,IIIB,MT-4,MTT,,EC50,,>34.78 µM
Cc1ccnc2c1NC(=O)c1cccnc1N2C1CC1,NL4-3,MT-2,luminescence,,EC50,,0.00032 µM
Nc1ncnc2c1ncn2CCOCP(=O)(OCOC(=O)OCc1ccccc1)OCOC(=O)OCc1ccccc1.O=C(O)/C=C/C(=O)O,IIIB,MT-4,p24,,EC50,,>30 µM
CC(C)(C)NC(=O)[C@@H]1CN(Cc2cccnc2)CCN1C[C@@H](O)C[C@@H](Cc1ccccc1)C(=O)N[C@H]1c2ccccc2C[C@H]1O,LAI,C8166,p24 / ELISA / antigen,,EC50,,0.00392 µg/mL
COc1ncccc1C(=O)c1cccc(C#N)c1,IIIB,MT-4,MTT,,EC50,,56.25 µM
COc1ccc(C[C@@H]2[C@H](O)[C@@H](O)[C@@H](Cc3ccc(OC)cc3)N(Cc3ccccc3)C(=O)N2Cc2ccccc2)cc1,RF,MT-2,hybridisation,,EC50,,<0.6 µM
CC(C)(C)NC(=O)[C@@H]1C[C@@H]2CCCC[C@@H]2CN1C[C@@H](O)[C@H](Cc1ccccc1)NC(=O)[C@H](CC(N)=O)NC(=O)c1ccc2ccccc2n1,BR60 (PR L10I K20R M36I/V P63L/S L90M),PBMC,p24,,EC50,PR-L10I K20R M36I/V P63L/S L90M,0.004 µM
Cc1cc(C)c(-n2nnnc2SCC(=O)Nc2ccc(S(N)(=O)=O)cc2Cl)c(C)c1,,MT-4,p24,,EC95,,<10 µM
C[C@@H]1CN2CCC[C@@H]3CCCCC[C@@H]4C(=O)[C@@H](C)CN5CCC[C@@H](CCCCC[C@@H](C1=O)[C@H]32)[C@H]45,MN,MT-2,syncytia,,EC50,,36.1 µM
Cc1cn([C@H]2C[C@H](N=[N+]=[N-])[C@@H](COC(=O)[C@@]3(O)CCC4C5CCC6=CC(=O)C=CC6(C)C5C(O)CC43C)O2)c(=O)[nH]c1=O,,CEM,cytopathic effect / XTT,,EC50,,1.65 µM
Nc1ncnc2c1ncn2CCOCP(=O)(O)OCOC(=O)OCc1ccccc1,,MT-4,p24,,EC50,,>30 µM
O=C1N(Cc2cccc(-c3ccn[nH]3)c2)[C@H](Cc2ccc(O)cc2)[C@H](O)[C@@H](O)[C@@H](Cc2ccc(O)cc2)N1Cc1cccc(-c2ccn[nH]2)c1,RF,MT-2,hybridisation,,EC50,,<1.345 µM
O=C(CSc1nnnn1-c1ccccc1-c1ccccc1)Nc1ccccc1[N+](=O)[O-],,MT-4,p24,,EC50,,<10 µM
C[C@H](Cn1cnc2c(N)ncnc21)OCP(=O)(OCOC(=O)OCc1ccccc1)OCOC(=O)OCc1ccccc1,,MT-4,p24,,EC50,,>30 µM
CC(C)(C)NC(=O)[C@@H]1C[C@@H]2CCCC[C@@H]2CN1C[C@@H](O)[C@H](Cc1ccccc1)NC(=O)[C@H](CC(N)=O)NC(=O)c1ccc2ccccc2n1,NL4-3,MT-4,p24,,EC50,PR-L10R L63P,<0.025 µM
CCCCCCCCCCCCCC(=O)O[C@H]1CCC(NC(=O)[C@H](OC)[C@H](O)[C@@H](O)[C@H](O)/C=C/C(C)C)C(=O)NC1,NL4-3,PBMC,p24 / ELISA,,EC50,,0.032 µM
Cc1cn([C@H]2C[C@H](N=[N+]=[N-])[C@@H](CO)O2)c(=O)[nH]c1=O,Site-directed mutant,MT-2,cytopathic effect / XTT,,EC50,RT-L74V,0.7 µM
COc1ccnc2[nH]cc(C(=O)C(=O)N3CCN(C(=O)c4ccccc4)C[C@H]3C)c12,IIIB,MT-2,MTT,,EC50,,0.32 µM
C[C@H]1CN2CCC[C@H]3CCCCC[C@@H]4C(=O)[C@@H](C)CN5CCC[C@@H](CCCCC[C@H](C1=O)[C@@H]32)[C@H]45,MN,MT-2,p24,,EC90,,86.8 µM
Cc1cn([C@H]2C[C@H](N=[N+]=[N-])[C@@H](CO)O2)c(=O)[nH]c1=O,KK-1,MT-4,cytopathic effect,,EC50,,0.001 µg/mL
Cc1cc(C)cc(C(=O)c2cccnc2Oc2ccc(C#N)cc2)c1,RES056,MT-4,MTT,,EC50,,>31.61 µM
CC(=O)Nc1cccc2c1nc(-c1c(F)cccc1F)n2Cc1c(F)cccc1F,,MT-4,cytopathic effect / MTT,,EC50,RT-K103N,>20 µM
Cc1cc(C)cc(C(=O)c2cccnc2Nc2cccnc2)c1,IIIB,MT-4,MTT,,EC50,,>41.63 µM
Oc1ccc(-c2c(-c3cc(O)cc(O)c3)sc3ccccc23)cc1,,,single cycle,,EC50,,28.3–41.9 µM
Cc1cc(C)c(-n2nnnc2SCC(=O)Nc2ccc(S(=O)(=O)Nc3nc(C)c(C)o3)cc2)c(C)c1,,MT-4,p24,,EC50,,<10 µM